This note sets out measurements from PubChem BioAssay AID720706 (Broad Institute, 2013).

This is a selection; strong and weak results do not stand in their true shares. Some salts or complexes appear as unconnected parts, following the source record. Calls of active or inactive are those of the source.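 How the source made its calls: active means significant combined selectivity score with lowered wild-type GFP, culture density cut under 30%, mutant RFP and density less affected; inactive means any of these conditions unmet.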

This test is described as follows: reduced GFP signal of wild-type E. coli, primary screen, bacterial rRNA inhibitor project, GFP/RFP fluorescence, OD600, single point (AID 720706). The following applies: E. coli WT GFP vs humanized-ribosome RFP mutants, 24 h, active compounds read low, DMSO median 0, no signal -100.
For the compound `O=C(OC1CN2CCC1CC2)c1ccccc1` (centres undefined), the GFP signal change (wild-type ribosome) was inactive: 4.1%.
With `Cc1c([N+](=O)[O-])cc([N+](=O)[O-])c(Br)c1[N+](=O)[O-]`, the GFP signal change (wild-type ribosome) is inactive: -0.445%.
Consider `Cc1ccc(OP(=O)(Nc2ccccn2)Oc2ccc(C)cc2)cc1`, for which the GFP signal change (wild-type ribosome) is inactive: -22.8%.
Regarding `CC(NC(=O)COC(=O)C(O)(c1ccccc1)c1ccccc1)c1ccccc1` (centres undefined), the GFP signal change (wild-type ribosome) was inactive: -6.93%.
On to `Cc1ccccc1OP(=O)(Nc1ccccn1)Oc1ccccc1C`, for which the GFP signal change (wild-type ribosome) was inactive: -30.2%.
For `O=c1c2cc([N+](=O)[O-])ccc2[nH]c2c([N+](=O)[O-])cc([N+](=O)[O-])cc12`, the GFP signal change (wild-type ribosome) is inactive: 9.28%.
As to `CCCCCOc1ccc(NP(C)(=O)Oc2ccc(Cl)cc2Cl)cc1` (centres undefined), the GFP signal change (wild-type ribosome) is inactive: 12.2%.
The same measure for `O=[N+]([O-])c1cc([N+](=O)[O-])c(OC2CCCCC2O)c([N+](=O)[O-])c1` (centres undefined): inactive: -7.35%; for `CN(C)C(=O)Oc1noc2ccccc12`: inactive: 18.1%; for `c1ccc(-c2nn[nH]n2)c(-c2nn[nH]n2)c1`: inactive: 13.7%.
Turning to `Cc1ccc(NP(=O)(Oc2cccc(C)c2)Oc2cccc(C)c2)nc1`, the GFP signal change (wild-type ribosome) is inactive: 5.95%.
`CCNC(=S)/N=C(\N)N[N+](=O)[O-]`: the GFP signal change (wild-type ribosome) was inactive: 12.1%.
Turning to `O=C(NC1CCS(=O)(=O)C1)NP(=S)(Oc1ccccc1)Oc1ccccc1` (centres undefined), the GFP signal change (wild-type ribosome) was inactive: -14.8%.
In the case of `COc1ccc(OP(C)(=O)Nc2ccc(SC(F)(F)F)cc2)cc1` (centres undefined), the GFP signal change (wild-type ribosome) is inactive: 1.12%.
For `O=P1(N(CCCl)CCCl)OCCC2CCCCN21` (centres undefined) the value was inactive: 5.88%; for `Cc1ccccc1CN(C)C(=O)COC(=O)C(O)(c1ccccc1)c1ccccc1`, inactive: -24.4%; for `O=C(OCCN1CCN(CCOCc2ccccc2)CC1)C(O)(c1ccccc1)c1ccccc1`, inactive: -7.54%.
For `C[C@H]1OP(=O)(Oc2ccccc2)C[C@@H]2O[C@@H]21` (some centres undefined) the value was inactive: 5.9%.
As for `C[C@@H]1C=CCP(=O)(Oc2ccccc2)O1` (some centres undefined), the GFP signal change (wild-type ribosome) is inactive: 7.78%.
`CC(=O)c1ccc(N2CC2c2ccncc2)cc1` (centres undefined): the GFP signal change (wild-type ribosome) is inactive: 9.53%.
For `N#C/C(=C\c1ccc(N(CCBr)CCBr)cc1)C(N)=O`, the GFP signal change (wild-type ribosome) is inactive: 3.68%.
For `O=C(OC1CN2CCC1CC2)c1ccc([N+](=O)[O-])cc1` (centres undefined), the GFP signal change (wild-type ribosome) is inactive: 5.3%.
The same measure for `COC(=O)C1(C)COP(=O)(NCc2ccccc2)OC1` (centres undefined): inactive: 6.05%; for `CC(=O)Nc1ccc([As](=O)(O)O)c(O)c1`: inactive: 13.3%.
As for `COc1ccc2c(c1O)-c1c(O)c(OC)cc3c1[C@H](C2)[N+](C)(C)CC3.O=[N+]([O-])c1cc([N+](=O)[O-])c([O-])c([N+](=O)[O-])c1[O-]`, the GFP signal change (wild-type ribosome) is inactive: 25.7%.
Take `O=[N+]([O-])c1cc([N+](=O)[O-])c(Nc2ccc(Cl)cc2)c([N+](=O)[O-])c1`: the GFP signal change (wild-type ribosome) was inactive: -58%.
For `CCOc1ccc(C2=NCC(CBr)S2)cc1` (centres undefined) the value was inactive: 4.18%; for `CC(C)(C)C(=O)NC(Sc1ccccc1)C(Cl)(Cl)Cl` (centres undefined), inactive: -26.5%; for `CC(C)c1ccc(OP(C)(=O)Nc2ccc(SC(F)(F)F)cc2)cc1` (centres undefined), inactive: -3.97%.
The same measure for `CCc1cc(O)c([N+](=O)[O-])c(C)c1[N+](=O)[O-]`: inactive: -50%.
For `CP(=O)(Nc1ccccc1F)Oc1ccccc1` (centres undefined) the value was inactive: 6.92%; for `CP(=O)(Nc1ccc(SC(F)(F)F)cc1)Oc1ccc(F)cc1` (centres undefined), inactive: -39%; for `CCOP(=O)(CC)OCC`, inactive: 4.53%.
Take `O=[As](O)(c1ccccc1)c1ccc(O)cc1`: the GFP signal change (wild-type ribosome) is inactive: -0.828%.
With `Cc1cc(-c2cccc3ccccc23)c(C)cn1.O=[N+]([O-])c1cc([N+](=O)[O-])c(O)c([N+](=O)[O-])c1`, the GFP signal change (wild-type ribosome) is inactive: -25.2%.
For `O=[N+]([O-])c1cc([N+](=O)[O-])c(NCC2CCS(=O)(=O)C2)c([N+](=O)[O-])c1` (centres undefined) the value was inactive: 1.24%; for `CC(=O)NC(SC(=S)N(C)C)C(Cl)(Cl)Cl` (centres undefined), inactive: 18.1%; for `O=[N+]([O-])c1ccc(OP2(=O)COCCO2)cc1` (centres undefined), inactive: -4.12%.
For `O=[N+]([O-])c1ncn(CCn2cnc([N+](=O)[O-])n2)n1` the value was inactive: 5.97%; for `Cc1c(C(c2ccc3c(c2)OCO3)c2c(C)n(C)n(-c3ccccc3)c2=O)c(=O)n(-c2ccccc2)n1C.O=[N+]([O-])c1cc([N+](=O)[O-])c(O)c([N+](=O)[O-])c1`, inactive: 5.27%; for `C/C(N)=N\P(=O)(OCc1ccccc1)OCc1ccccc1`, inactive: 1.09%.
Turning to `C(Cc1nn[nH]n1)Cc1nn[nH]n1`, the GFP signal change (wild-type ribosome) was inactive: 3.43%.
For `Nc1ccc([As](=O)(O)c2ccc([N+](=O)[O-])cc2)cc1` the value was inactive: 6.93%; for `O=P(Nc1ccccn1)(c1ccc(Br)cc1)c1ccc(Br)cc1`, inactive: 6.26%.
For the compound `CN(C)C1(CNC(=O)c2ccc(Cl)c(S(N)(=O)=O)c2)CCCCC1`, the GFP signal change (wild-type ribosome) is inactive: 9.09%.
`COc1ccc(NP(C)(=O)Oc2ccccc2OC)cc1` (centres undefined): the GFP signal change (wild-type ribosome) was inactive: 3.17%.
For `O=P(Nc1nc2ccccc2s1)(c1ccccc1)c1ccccc1`, the GFP signal change (wild-type ribosome) was inactive: -16.7%.
The same measure for `C[C@H]1OP(=O)(Oc2ccccc2)[C@H](O)[C@H](O)[C@H]1N=[N+]=[N-]` (some centres undefined): inactive: 8.86%; for `O=[N+]([O-])c1ncn(CCn2ncnc2[N+](=O)[O-])n1`: inactive: 9.79%; for `CC(C)(C)C(=O)NC(Sc1ccncn1)C(Cl)(Cl)Cl` (centres undefined): inactive: 8.66%.
For `O=C(O)CNc1ccc([As](=O)(O)O)cc1` the value was inactive: 12.3%.
In the case of `COC(=O)C1(C)COP(=O)(Nc2ccccc2)OC1` (centres undefined), the GFP signal change (wild-type ribosome) was inactive: 7.12%.
`O=[N+]([O-])c1cccc(NC2=NCC(CBr)S2)c1` (centres undefined): the GFP signal change (wild-type ribosome) is inactive: -2.8%.
As to `O=P1(N(CCCl)CCCl)OCCCS1` (centres undefined), the GFP signal change (wild-type ribosome) was inactive: 13.8%.
As for `Nc1ccc2c(ccc3cccnc32)n1.O=[N+]([O-])c1cc([N+](=O)[O-])c(O)c([N+](=O)[O-])c1`, the GFP signal change (wild-type ribosome) is inactive: -23.2%.
For `CCOC(=O)c1ccc(NP(C)(=O)Oc2ccc(Cl)cc2)cc1` (centres undefined) the value was inactive: -17.2%.
The same measure for `O=C(Nc1cc([As](=O)(O)O)ccc1O)c1ccccc1`: inactive: 6.43%; for `CCN(/C(=N/P(=O)(N1CCOCC1)N1CCOCC1)N1CCOCC1)c1ccc(OC)cc1`: inactive: 4.43%.
For the compound `COc1ccccc1OP(C)(=O)Nc1ccccc1Br` (centres undefined), the GFP signal change (wild-type ribosome) is inactive: -6.8%.
